Anti-infective test results gathered from many reports (values: NIAID ChemDB through PubChem).

Common to all: target-level tests; agent: Pneumocystis carinii; protein: DHFR; read-out: IC50

Conditions beyond the fields shown may differ between rows.

SMILES,result
Nc1nc(N)c2nc(CCc3cccs3)cnc2n1,12.9 µM
Nc1nc(N)c2c3c(cnc2n1)CCCC3,>30 µM
CCc1nc2nc(N)nc(N)c2nc1-c1ccccc1OC,2 µM
Nc1nc2c(c(=O)[nH]1)C(c1ccccc1)C([N+](=O)[O-])O2,34 µM
COc1ccc(NCc2cnc3nc(N)nc(N)c3c2C)c(C)c1,0.176 µM
Nc1nc(N)c2nc(CCCc3ccccc3)c(CCCc3ccccc3)nc2n1,1.1 µM
Nc1nc(N)c2nc(CCc3ccc4ccccc4n3)cnc2n1,0.86 µM
Cc1nc2nc(N)nc(N)c2c2c1CCCC2,1 µM
CCc1nc2nc(N)nc(N)c2nc1CC,0.62 µM
COc1ccc(OC)c(CCc2cnc3nc(N)nc(N)c3n2)c1,19.3 µM
COc1ccccc1-c1coc2nc(N)[nH]c(=O)c12,>300 µM
Nc1nc(N)c2cc(I)ccc2n1,1.6 µM
COc1cccc(-c2coc3nc(N)[nH]c(=O)c23)c1,50 µM
Nc1nc(N)c2c(Cl)cccc2n1,0.42 µM
Cl.Nc1nc(N)c2nc(CCc3ccccn3)cnc2n1,57.1 µM
Nc1nc2occ(-c3ccc(F)cc3)c2c(=O)[nH]1,100 µM
COc1cc(N(C)Cc2csc3nc(N)nc(N)c23)cc(OC)c1OC,>10 µM
COc1cc(-c2coc3nc(N)[nH]c(=O)c23)cc(OC)c1OC,>300 µM
Nc1nc(N)c2nc(Cc3cccc(C(F)(F)F)c3)c(Cc3cccc(C(F)(F)F)c3)nc2n1,26 µM
Nc1nc(N)c2nc(CCc3ccnc4ccccc34)cnc2n1,4.9 µM
COc1cc(N2C(N)=NC(N)=NC2(C)C)c(OC)cc1Cl,>60 µM
Nc1nc2occ(-c3ccc(O)cc3)c2c(=O)[nH]1,140 µM
Cc1ccc2nc(N)nc(N)c2c1,20 µM
COc1ccc(OC)c(N(C)Cc2cnc3nc(N)nc(N)c3c2C)c1,0.046 µM

The first 3 rows once more:

Nc1nc(N)c2nc(CCc3cccs3)cnc2n1 ; result: 12.9 µM
Nc1nc(N)c2c3c(cnc2n1)CCCC3 ; result: >30 µM
CCc1nc2nc(N)nc(N)c2nc1-c1ccccc1OC ; result: 2 µM

ICn: concentration for n% inhibition.